Compound potency records, mixed from different reports. Data source: NIAID ChemDB in PubChem.

All rows: enzyme or target tests

Lines come from different laboratories, so protocols vary. ICn is the concentration giving n% inhibition. An empty or dashed field is not shown. Inhibition is in % at the dose shown (toxicity tests: loss of growth or viability).

structure,protein,agent,method,endpoint,tested at,strain,value
COc1cc(/C=C2\SC(=S)N(CCC(=O)NNC(=O)c3cccc4ccccc34)C2=O)cc(OC)c1OC,Pantothenate synthetase,Mycobacterium tuberculosis,absorbance,IC50,-,-,1.14 µM
O=c1[nH]c(=O)n([C@H]2C[C@H](O)[C@@H](CO)O2)cc1/C=C/Br,Thymidine monophosphate kinase,Mycobacterium tuberculosis,-,IC50,-,-,625 µM
O=C(O)Cc1ccc(O)c(Cl)c1,Rv3273,Mycobacterium tuberculosis,-,Ki,-,Rv3273,10.8 µM
CO[C@H]1O[C@@H](n2ccc(=O)[nH]c2=O)C[C@@H]1N=[N+]=[N-],Thymidine monophosphate kinase,Mycobacterium tuberculosis,-,IC50,-,-,810 µM
CCc1cnc(C2=NC(C)(C(C)C)C(=O)N2)c(C(=O)O)c1,Acetohydroxyacid synthase,Mycobacterium avium,-,Ki,-,-,>1000 µM
COc1ccc(C2NC(=S)N=C3C2C(=O)N=C2SC([N+](=O)[O-])=CN23)cc1,CysK1,Mycobacterium tuberculosis,absorbance,inhibition,100 µM,-,90.9%
CCOc1ccc2cc(-n3nncc3COc3nc(-c4ccccc4)sc3C(=O)O)c(=O)oc2c1,DNA gyrase,Mycobacterium tuberculosis,gel / absorbance,IC50,-,-,11.31 µM
O=c1[nH]c(=O)n([C@H]2C[C@H](O)[C@@H](CO)O2)cc1F,Thymidine monophosphate kinase,Mycobacterium tuberculosis,-,Ki,-,-,212 µM
O=c1[nH]c(=O)n([C@H]2C[C@H](O)[C@@H](CO)O2)cc1Br,Thymidine monophosphate kinase,Mycobacterium tuberculosis,-,IC50,-,-,5 µM
CCOc1ccc2cc(-n3nncc3COc3nc(-c4ccccc4)sc3C=O)c(=O)oc2c1,DNA gyrase,Mycobacterium tuberculosis,gel / absorbance,IC50,-,-,7.3 µM
C[C@@H]1CN(c2c(F)c(N)c3c(=O)c(C(=O)O)cn(C4CC4)c3c2F)C[C@H](C)N1,Gyrase (V90A mutant),Mycobacterium tuberculosis,-,IC50,-,-,>400 µg/mL
O=C1N=C2SC([N+](=O)[O-])=CN2C2=NC(=S)NC(c3cccc(Br)c3)C12,CysK1,Mycobacterium tuberculosis,absorbance,inhibition,100 µM,-,60.1%
CC(C)C1(C)N=C(c2nc3ccccc3cc2C(=O)O)NC1=O,Acetohydroxyacid synthase,Mycobacterium avium,-,Ki,-,-,>1000 µM
O=C(O)c1sc(-c2ccccn2)nc1OCc1cnnn1-c1cc2ccc(O)cc2oc1=O,DNA gyrase,Mycobacterium tuberculosis,gel / absorbance,IC50,-,-,15.8 µM
O=c1[nH]c(=O)n([C@H]2C[C@H](O)[C@@H](COP(=O)([O-])[O-])O2)cc1Cc1ccccc1,Thymidine monophosphate kinase,Mycobacterium tuberculosis,-,Ki,-,-,10 µM
O=C1N=C2SC([N+](=O)[O-])=CN2C2=NC(=S)NC(c3ccc(Br)cc3)C12,CysK1,Mycobacterium tuberculosis,absorbance,inhibition,100 µM,-,34.4%
O=C(CCN1C(=O)/C(=C/c2ccc(OCc3ccccc3)cc2)SC1=S)NNC(=O)c1ccncc1,Pantothenate synthetase,Mycobacterium tuberculosis,absorbance,IC50,-,-,1.54 µM
O=C1N=C2C(C(=O)N=C3SC([N+](=O)[O-])=CN32)C(c2ccc(Cl)cc2)N1,CysK1,Mycobacterium tuberculosis,absorbance,inhibition,100 µM,-,20%
O=C(CCN1C(=O)/C(=C/c2ccc(OCc3ccccc3)cc2)SC1=S)NNC(=O)c1cccc2ccccc12,Pantothenate synthetase,Mycobacterium tuberculosis,absorbance,IC50,-,-,1.7 µM
O=c1ccn([C@H]2C[C@H](O)[C@@H](CO)O2)c(=O)[nH]1,Thymidine monophosphate kinase,Mycobacterium tuberculosis,-,Ki,-,-,1020 µM
Nc1ccc2cc(-n3nncc3COc3nc(-c4ccncc4)sc3C=O)c(=O)oc2c1,DNA gyrase,Mycobacterium tuberculosis,gel / absorbance,IC50,-,-,11.8 µM
Cc1ccc(C2NC(=S)N=C3C2C(=O)N=C2SC([N+](=O)[O-])=CN23)cc1,CysK1,Mycobacterium tuberculosis,absorbance,inhibition,100 µM,-,0%
CC(C)C1(C)N=C(c2ncccc2C(=O)O)NC1=O,Acetohydroxyacid synthase,Mycobacterium avium,-,Ki,-,-,>2000 µM
Cc1cn([C@@H]2O[C@H](CO)[C@@H](O)[C@H]2O)c(=O)[nH]c1=O,Thymidine monophosphate kinase,Mycobacterium tuberculosis,-,Ki,-,-,716 µM
O=c1[nH]c(=O)n([C@H]2C[C@H](O)[C@@H](CO)O2)cc1CO,Thymidine monophosphate kinase,Mycobacterium tuberculosis,-,IC50,-,-,820 µM
O=C(CCN1C(=O)/C(=C/c2ccc([N+](=O)[O-])cc2)SC1=S)NNC(=O)c1ccncc1,Pantothenate synthetase,Mycobacterium tuberculosis,absorbance,IC50,-,-,0.59 µM
O=C1N=C2SC([N+](=O)[O-])=CN2C2=NC(=S)NC(c3ccc([N+](=O)[O-])cc3)C12,CysK1,Mycobacterium tuberculosis,absorbance,inhibition,100 µM,-,29.4%
Cc1cn([C@@H]2O[C@H](COP(=O)([O-])[O-])[C@@H](O)[C@H]2N)c(=O)[nH]c1=O,Thymidine monophosphate kinase,Mycobacterium tuberculosis,-,Ki,-,-,19.01 µM
CCOc1ccc2cc(-n3nncc3COc3nc(-c4ccccn4)sc3C(=O)OC)c(=O)oc2c1,DNA gyrase,Mycobacterium tuberculosis,gel / absorbance,IC50,-,-,5.5 µM
Cc1cn([C@@H]2O[C@H](CO)[C@@H](CN)[C@H]2O)c(=O)[nH]c1=O,Thymidine monophosphate kinase,Mycobacterium tuberculosis,-,Ki,-,-,156 µM
Nc1ccc2cc(-n3nncc3COc3nc(-c4ccncc4)sc3C(=O)O)c(=O)oc2c1,DNA gyrase,Mycobacterium tuberculosis,gel / absorbance,IC50,-,-,1.56 µM
O=c1[nH]c(=O)n([C@H]2C[C@H](O)[C@@H](CO)O2)cc1F,Thymidine monophosphate kinase,Mycobacterium tuberculosis,-,IC50,-,-,212 µM

The last 3 rows once more:

Cc1cn([C@@H]2O[C@H](CO)[C@@H](CN)[C@H]2O)c(=O)[nH]c1=O ; protein: Thymidine monophosphate kinase ; agent: Mycobacterium tuberculosis ; endpoint: Ki ; value: 156 µM
Nc1ccc2cc(-n3nncc3COc3nc(-c4ccncc4)sc3C(=O)O)c(=O)oc2c1 ; protein: DNA gyrase ; agent: Mycobacterium tuberculosis ; method: gel / absorbance ; endpoint: IC50 ; value: 1.56 µM
O=c1[nH]c(=O)n([C@H]2C[C@H](O)[C@@H](CO)O2)cc1F ; protein: Thymidine monophosphate kinase ; agent: Mycobacterium tuberculosis ; endpoint: IC50 ; value: 212 µM